Laboratory results: PMC8828469, “Enhanced fitness of SARS-CoV-2 variant of concern Alpha but not Beta” (2021)
“And” between values parts separate entries of the source, which are not always exact repeats. Identical values can stand only once.

Target: human ACE2 ectodomain with human IgG1 Fc tag (human) (UniProt Q9BYF1)
Assay: BLI

## SARS-CoV-2 spike protein of Beta (B.1.351), S^Beta, recombinant trimeric protein (domain or fragment)
  koff: 6.27e-05 s⁻¹ and 3.37e-05 s⁻¹ and 3.66e-05 s⁻¹
  kon: 114000 M⁻¹ s⁻¹ and 103000 M⁻¹ s⁻¹ and 77700 M⁻¹ s⁻¹
